Assay results taken from ChEMBL document CHEMBL5131497, “Design, Synthesis, and Characterization of TNP-2198, a Dual-Targeted Rifamycin-Nitroimidazole Conjugate with Potent Activity against Microaerophilic and Anaerobic Bacterial Pathogens” (J Med Chem, 2022).

Columns and labels:
Format in all cases: functional
[1] = tested on: Helicobacter pylori; assay: Antibacterial activity against metronidazole/rifampicin-resistant Helicobacter pylori CB1893 harboring rpoBL525I/D530N/rdxAR16S mutant at 1:1 compound to rifabutin molar ratio measured after 5 days in presence of rifabutin by agar dilution method; conditions: CB1893, 120 h, time 5 day
[2] = tested on: Helicobacter pylori; assay: Antibacterial activity against rifampicin-resistant Helicobacter pylori CB1903 harboring rpoBD530V mutant at 1:1 compound to rifampicin molar ratio measured after 5 days in presence of rifampicin by agar dilution method; conditions: CB1903, 120 h, time 5 day
[3] = tested on: Helicobacter pylori; assay: Antibacterial activity against metronidazole/rifampicin-resistant Helicobacter pylori CB1771 harboring rpoBL525I/D530N/rdxAE75stop mutant at 1:1 compound to rifabutin molar ratio measured after 5 days in presence of rifabutin by agar dilution method; conditions: CB1771, 120 h, time 5 day

Measured: MIC

Cc1ncc([N+](=O)[O-])n1CCO [METRONIDAZOLE]
16 µg/mL: all assays above
